Test results: patent US7384920B2, “Use of stilbene compounds in the manufacture of medicament for the prevention and treatment of diabetes or retrovirus-associated diseases” (priority 2001, dated 2008)

System: mice
Conditions: mouse, in vivo

“3,3′,4′,5-quadrahydroxystilbene-4′-O-β-D-glucopyranoside [Compound E1]” was tested, and the “Toxicity (in words)” value was “very low”.
